## Share of PSTVd loop 6 variants by leaf site

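Three N. benthamiana plants were inoculated with the whole mutant pool. Progeny were sequenced from the inoculated region (day 5), the margin of the inoculated leaf (day 10) and systemic leaves (day 12).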

Region: loop 6 of PSTVd (intermediate strain), upper and lower strand joined, each 5' to 3', the first 5 letters being the upper strand, closing pairs included. Wild type: UGACCGCGAG. Varied positions (N): UNNNCGNNNG.

Values are reads per thousand in the sample; higher means more abundant, 0 means not found. Each value is the mean of three plants. "Pool" is the share in the plasmid pool used as inoculum, on the same scale. The inoculated region was read from the minus strand, the other sites from the plus strand. IR is the inoculated region, LM the leaf margin, Sys the systemic leaves.

sequence	pool	IR	LM	Sys
UCUACGCCCG	0.261	0.0899	0	0
UUCGCGCGUG	0.235	0.0827	0.0428	0
UUCGCGAUCG	0.248	0.102	0.00920	0
UCUUCGCUAG	0.209	0.0894	0.00841	0
UCUCCGAGAG	0.118	0.123	0.00841	0
UGAUCGGGAG	0.353	3.75	1.17	1.68
UGCGCGUAAG	0.157	0.0656	0	0
UACUCGUGGG	0.144	0.0704	0.00920	0
GGACCGACUG	0.0131	0.0236	0	0
UUCGCGCAAG	0.157	0.107	0	0
UUCUCGGUCG	0.288	0.0596	0	0
UAUCCGCCCG	0.301	0.113	0	0
UGUACGUACG	0.235	0.125	0	0
UGCUCGCGAG	0.157	0.263	0.0537	0.266
UUAACCGGAG	0.0131	3.65	1.05	0.429
UGCCCGACCG	0.183	0.0833	0	0
UAAACGCCCG	0.157	0.661	0.0960	0
UCCUCGCCAG	0.209	0.0712	0	0
UCCUCGAGAG	0.196	0.0894	0.00920	0
UAAACGUGUG	0.170	0.729	0.0368	0.0324
UCACCGUCCG	0.118	0.0777	0.0169	0
UCUCCGUACG	0.157	0.0536	0.0155	0
UUCUCGUCCG	0.275	0.0887	0.00920	0
UGUUCGGCUG	0.340	0.628	0.0800	0
UUGACGAGAG	0.235	0.690	0.0668	0
UCGUCGAGGG	0.183	0.0903	0.0247	0
UUUGCGAGUG	0.170	0.0654	0	0
UUGGCGAAGG	0.183	0.109	0	0
UCGCCGGACG	0.235	0.0881	0.00773	0
UAGACGUGCG	0.222	0.660	0.150	0
UCUACGUGUG	0.196	0.155	0.0155	0
UGCCCGCGAG	0.144	0.251	0.410	0.373
UUCACGCGAG	0.327	0.186	0.0736	0.0876
UCGCCGGAGG	0.235	0.0719	0	0
UAGGCGGGGA	0.0131	0	0	0
UCUUCGACAG	0.235	0.0840	0	0
UUGCCGGUAG	0.418	0.0944	0	0
UUUGCGCUUG	0.314	0.0836	0.00920	0
UUCGCGCAGG	0.301	0.102	0.00920	0
UUCGCGAUAG	0.340	0.107	0.0541	0.00673
UGUCCGGCCG	0.183	0.126	0.0169	0
UCAGCGACGG	0.327	0.108	0	0
UGAUCGUACG	0.288	0.114	0	0
UAAACGGGAG	0.144	3.78	1.14	1.31
UGCCCGGCAG	0.196	0.0781	0	0

The first 3 entries again:

UCUACGCCCG (pool 0.261): IR 0.0899; LM 0; Sys 0.
UUCGCGCGUG (pool 0.235): IR 0.0827; LM 0.0428; Sys 0.
UUCGCGAUCG (pool 0.248): IR 0.102; LM 0.00920; Sys 0.

For reference, wild type rose from 20.7 per thousand in the pool to 195, 198, 203 (inoculated region), 629, 591, 734 (leaf margin) and 942, 870, 868 (systemic leaves). Samples held 36,220 to 57,551 reads, so the smallest values rest on one or two reads. Sequences that differ at fixed positions probably stem from PCR or sequencing errors, and defective variants can be carried along by functional ones.

Source: Wu et al. 2024 (doi:10.1371/journal.ppat.1012142), supplementary data.